A mixed list of measured activities; the numbers were collected in NIAID ChemDB.

Shared fields: tests in culture; organism: Candida albicans; read-out: Mean MIC

Neighbouring rows are from separate reports.

smiles	strain or isolate	result
Cc1c(C(=O)O)c(-c2ccc(Cl)cc2)cn1-c1ccc(F)cc1	40 strains	83.33 µg/mL
CN(C)c1ccc(CNc2cccc(Cn3ccnc3)c2)cc1	27 strains	116 µg/mL
Cc1c(C(=O)O)c(-c2ccc(Br)cc2)cn1-c1ccc(Br)cc1	40 strains	12.29 µg/mL
CC(=O)N1CCN(c2ccc(OCC3COC(Cn4ccnc4)(c4ccc(-c5ccccc5)cc4)O3)cc2)CC1	44 strains	29.7 µg/mL
Cn1cc(-c2ccccc2)c(C(c2cccc3ccccc23)n2ccnc2)c1	33 strains	20.33 µg/mL
O=[N+]([O-])c1ccccc1C=Nc1cccc(Cn2ccnc2)c1	27 strains	84.59 µg/mL
Clc1ccc(C(c2ccc3ccccc3c2)n2ccnc2)cc1	23 strains	7.13 µg/mL
OC[C@H]1CO[C@](Cn2ccnc2)(c2ccc(-c3ccccc3)cc2)O1	44 strains	143.9 µg/mL
Cc1ccc(C(c2ccc3ccccc3c2)n2ccnc2)cc1	23 strains	5.14 µg/mL
Clc1ccccc1CNc1cccc(Cn2ccnc2)c1	27 strains	81.5 µg/mL
Cc1ccc(-n2cc(-c3ccc(Cl)cc3)c(C(=O)O)c2C)cc1	40 strains	52.92 µg/mL
Clc1ccc(COc2ccc(C(c3ccc4ccccc4c3)n3ccnc3)cc2)cc1.O=[N+]([O-])O	17 strains	≥256 µg/mL
CS(=O)(=O)OCC1COC(Cn2ccnc2)(c2ccc(-c3ccccc3)cc2)O1	44 strains	110.4 µg/mL
Fc1cccc(C(c2nccc3ccccc23)n2ccnc2)c1.O=[N+]([O-])O	44 strains	128.5 µg/mL
c1csc(C(c2cccc3ccccc23)n2ccnc2)c1	23 strains	15.2 µg/mL
Fc1ccccc1COc1ccc(C(c2cccc3ccccc23)n2ccnc2)cc1.O=[N+]([O-])O	17 strains	≥256 µg/mL
O=C(OCC1COC(Cn2ccnc2)(c2ccc(-c3ccccc3)cc2)O1)c1ccccc1	44 strains	18.6 µg/mL
Fc1ccc(COc2ccc(C(c3nccc4ccccc34)n3ccnc3)cc2)c(F)c1	16 strains	≥256 µg/mL
Cn1cc(-c2ccccc2)c(C(c2ccc3ccccc3c2)n2ccnc2)c1	33 strains	211 µg/mL
Cc1c(C(=O)O)c(-c2ccc(Cl)cc2)cn1-c1ccc(Cl)cc1	40 strains	24.9 µg/mL
Cc1c(CN2CCCC2)cc(-c2ccc(Cl)cc2)n1-c1ccc(Cl)cc1Cl	20 strains	70.2 µg/mL
Cn1cc(-c2ccccc2)c(C(c2ccc(-c3ccccc3)cc2)n2ccnc2)c1	33 strains	190.1 µg/mL
Fc1ccc(COc2ccc(C(c3ccc(-c4ccccc4)cc3)n3ccnc3)cc2)cc1.O=[N+]([O-])O	16 strains	≥256 µg/mL
Nc1cccc(Cn2ccnc2)c1	27 strains	135 µg/mL
Clc1cccc(Cl)c1COc1ccc(C(c2ccc(-c3ccccc3)cc2)n2ccnc2)cc1.O=[N+]([O-])O	16 strains	≥256 µg/mL
Clc1ccc(C(c2cccc3ccccc23)n2ccnc2)cc1	23 strains	6.17 µg/mL
Cc1c(Cn2ccnc2)cc(-c2ccc(Cl)cc2)n1-c1ccc(Cl)cc1Cl	20 strains	53.4 µg/mL
COc1ccc(C(c2cccc3ccccc23)n2ccnc2)cc1	23 strains	49 µg/mL
c1ccc(-c2c[nH]cc2C(c2cccs2)n2ccnc2)cc1	33 strains	>256 µg/mL
Cc1c(C(=O)O)c(-c2ccc(Br)cc2)cn1-c1ccc(F)cc1	40 strains	78.57 µg/mL
O=[N+]([O-])O.c1coc(C(c2nccc3ccccc23)n2ccnc2)c1	44 strains	>256 µg/mL
COc1cc(C(=O)Nc2ccccc2Cn2ccnc2)cc(OC)c1OC	27 strains	71.9 µg/mL
Fc1ccc(COc2ccc(C(c3cccc4ccccc34)n3ccnc3)cc2)c(F)c1.O=[N+]([O-])O	17 strains	≥256 µg/mL
c1ccc(-c2c[nH]cc2C(c2ccsc2)n2ccnc2)cc1	33 strains	>256 µg/mL
Fc1ccc(C(c2cccc3ccccc23)n2ccnc2)cc1	23 strains	10.4 µg/mL
O=C(Nc1cccc(Cn2ccnc2)c1)c1ccc([N+](=O)[O-])cc1	27 strains	200 µg/mL
Cc1c(CNc2ccccc2)cc(-c2ccc(Cl)cc2)n1-c1ccc(Cl)cc1	20 strains	>200 µg/mL
Clc1ccc(C(c2nccc3ccccc23)n2ccnc2)cc1.O=[N+]([O-])O	44 strains	29.6 µg/mL
Cc1c(CN2CCN(C)CC2)cc(-c2ccc(Cl)cc2)n1-c1ccc(Cl)cc1Cl	20 strains	50.1 µg/mL
Fc1ccc(C(c2ccc3ccccc3c2)n2ccnc2)cc1	23 strains	5.18 µg/mL
Cc1ccc(-c2cn(-c3ccc(F)cc3)c(C)c2C(=O)O)cc1	40 strains	73.33 µg/mL
CCC1CCCC(CC)C(=O)NCCCC(CC)C(OC2OC(C)C(O)C(N)C2OC2OC(CO)C(O)C(O)C2O)CC1	12 strains	32 µg/mL
c1ccc(-c2c[nH]cc2C(c2cccc3ccccc23)n2ccnc2)cc1	33 strains	5.65 µg/mL
Cc1c(CN2CCCC2)cc(-c2ccccc2)n1-c1ccc(F)cc1	20 strains	113.4 µg/mL
c1csc(C(c2ccc3ccccc3c2)n2ccnc2)c1	23 strains	8.56 µg/mL

Repeating the final 4 entries:

smiles	strain or isolate	result
CCC1CCCC(CC)C(=O)NCCCC(CC)C(OC2OC(C)C(O)C(N)C2OC2OC(CO)C(O)C(O)C2O)CC1	12 strains	32 µg/mL
c1ccc(-c2c[nH]cc2C(c2cccc3ccccc23)n2ccnc2)cc1	33 strains	5.65 µg/mL
Cc1c(CN2CCCC2)cc(-c2ccccc2)n1-c1ccc(F)cc1	20 strains	113.4 µg/mL
c1csc(C(c2ccc3ccccc3c2)n2ccnc2)c1	23 strains	8.56 µg/mL